Measured values from several laboratories, pooled; numbers as filed in NIAID ChemDB.

Common to all: host cell toxicity; cell line: VERO; measure: CC50

Rows are shuffled and stem from different studies. CCn is the concentration with n% toxicity to the cells.

smiles | value
CC[C@H]1OC(=O)[C@H](C)C(=O)[C@H](C)[C@@H](O[C@@H]2O[C@H](C)C[C@H](N(C)C)[C@H]2O)[C@](C)(OC)C[C@@H](C)C(=O)[C@H](C)[C@H]2N(CC/C=C/c3ccccc3)C(=O)O[C@]12C | >104.8 µM
CC12CC[C@]3(C1)[C@H](CC2=O)[C@@H](O)C[C@H]1C(C)(C)CCC[C@@]13C | 48 µg/mL
COc1cccc([C@H](c2cc3cc(C#N)ccc3nc2OC)[C@@](O)(CCN(C)C)c2cncc(C)c2)c1F | >10 µg/mL
O=c1[nH]c(=O)n([C@@H]2O[C@@H](CO)[C@H](O)C2(F)F)cc1Cl | >100 µM
Clc1ccc(-c2nc3ccn(Cc4ccc(Br)cc4)cc-3n2)cc1 | >100 µg/mL
O=C(CN1c2c(-c3ccccc3)n[nH]c2-c2ccccc2S1(=O)=O)N/N=C/c1ccccc1F | 15.5 µM
C[C@@H](NC(=O)c1ccc([N+](=O)[O-])o1)c1ccccc1 | 23.59 µg/mL
CCCCCCCCCCCC(=O)c1c(O)cc(O)c([C@@H]2C[C@@H](c3ccc(O)cc3)Oc3cc(O)ccc32)c1O | 17.7 µg/mL
CC(=O)O[C@H]1C[C@H]2C(C)(C)CCC[C@]2(C)[C@@]23CCC(C)(C2)[C@@H](O)C[C@H]13 | 50 µg/mL
COc1cc(/C=N/NC(=O)Cn2nc(-c3ccccc3)c3c2-c2ccccc2S(=O)(=O)N3C)cc(OC)c1OC | >100 µM
O=C(NN=Cc1ccncc1)c1ccccc1Sc1ccccc1 | >50 µg/mL
CN1c2c(-c3ccccc3)nn(CC(=O)N/N=C/c3cccc(Cl)c3)c2-c2ccccc2S1(=O)=O | 78.5 µM
COc1ccc(/C=N/NC(=O)CN2c3c(-c4ccccc4)n[nH]c3-c3ccccc3S2(=O)=O)cc1OC | 46.1 µM
CC12CC[C@]3(C1)[C@@H](CC[C@H]1C(C)(C)CCC[C@@]13C)CC2=O | 28 µg/mL
O=C(Nc1ccc([N+](=O)[O-])cc1)c1cccc2[nH]c(-c3ccncc3)nc12 | 55.5 µg/mL
C=CCc1nc(C)n2c(=O)[nH]cnc12 | 200 µg/mL
CC(=O)c1c(C)n([O-])c2cc(Cl)c(Cl)cc2[n+]1=O | 3.3 µg/mL
Nc1ccn(C[C@@H](CO)OCP(=O)(O)O)c(=O)n1 | 92 µg/mL
CCN(CC)c1ccc(/C=N/NC(=O)CN2c3c(-c4ccccc4)n[nH]c3-c3ccccc3S2(=O)=O)cc1 | 62.6 µM
Nc1nc(=O)n([C@H]2O[C@@H](CO)[C@H](O)C2(F)F)cc1Br | >100 µM
CCCCCCCCC[C@H]1CC2CCC3C(C(=O)OCCCCCCCCCC4N=C(N)N5CCCC5=C4C(=O)OCCCCN=C(N)N)[C@@H](C)N=C(N1)N23 | 1.6 µM
CC(C)(C)OC(=O)N1CCCC[C@H]1[C@@H](O)c1cc(C(F)(F)F)nc2c(C(F)(F)F)cccc12 | 10 µM
Cc1cc(CCCCCOc2c(Cl)cc(C3=NCCO3)cc2Cl)on1 | 15 µg/mL
COc1ccc([C@](O)(CCN(C)C)[C@@H](c2cc3cc(Br)ccc3nc2OC)c2cccc(OC)c2OC)cn1 | >10 µg/mL
O=C(NCc1ccco1)c1ccc([N+](=O)[O-])o1 | 4.08 µg/mL
O=C(O)CN1CCCC[C@H]1[C@@H](O)c1cc(C(F)(F)F)nc2c(C(F)(F)F)cccc12 | >128 µM
O=C(Nc1ccccc1F)c1cccc2[nH]c(-c3ccccn3)nc12 | 15.33 µg/mL
Nc1nc2c(ncn2[C@@H]2C=C[C@H](CO)C2)c(=O)[nH]1 | >100 µM
O=C(CN1c2c(-c3ccccc3)n[nH]c2-c2ccccc2S1(=O)=O)N/N=C/c1ccc(Cl)cc1 | 14.2 µM
Cc1c(CN2CCSCC2)cc(-c2cccc3ccccc23)n1-c1ccc(F)cc1 | >128 µg/mL
CN1c2c(-c3ccccc3)nn(CC(=O)N/N=C/c3ccccc3F)c2-c2ccccc2S1(=O)=O | >100 µM
C=CCc1nc(C)n2c(=O)[nH]c(NC(C)=O)nc12 | 200 µg/mL
Nc1ncnc2c1ncn2C=C1CC1CO | 59 µM
O=C(Nc1cccc(F)c1)c1ccc([N+](=O)[O-])o1 | 9.29 µg/mL
C=CCc1ncn2c(=O)[nH]c(NC(C)=O)nc12 | 200 µg/mL
Cc1cn([C@@H]2O[C@@H](CO)[C@H](O)C2(F)F)c(=O)[nH]c1=O | >100 µM
O=C(NN=Cc1ccc([N+](=O)[O-])o1)c1ccccc1Sc1ccccc1 | 2.92 µg/mL
c1ccc(-c2ccc(CNc3ccc(-n4ccnc4)cc3)cc2)cc1 | 8 µg/mL
c1ccc(-c2nc3ccn(CC4CCCCC4)cc-3n2)cc1 | 60 µg/mL
O=C(NN=Cc1ccco1)c1ccccc1Sc1ccccc1 | >50 µg/mL
Nc1nc(=O)n([C@H]2O[C@@H](CO)[C@H](O)C2(F)F)cc1Cl | >100 µM
C/C(=N\NC(=O)c1ccncc1)c1cccc(/C(C)=N/NC(=O)c2ccncc2)n1 | >64 µg/mL
Cn1cc(C(=O)c2ccc(F)cc2)cc1/C=C/C(=O)NO | 8 µg/mL
Cc1c(C(=O)c2ccccc2)[n+](=O)c2ccccc2n1[O-] | >62.5 µg/mL
Cc1ccccc1NC(=O)c1cccc2[nH]c(-c3ccncc3)nc12 | 10.74 µg/mL
CC1(C)CCCC2=C1CC[C@@]13CCC(C)(C[C@@]21C)C(=O)C3 | 35 µg/mL
COc1ccc(-c2cc(C(F)(F)F)nc3c(C(F)(F)F)cccc23)cc1 | 45 µM
O=[N+]([O-])c1nccn1CCCNc1ccnc2cc(Cl)ccc12 | 146.7 µg/mL
Cn1cc(C(=O)c2ccc([N+](=O)[O-])cc2)cc1/C=C/C(=O)O | 15 µg/mL
COc1cccc([C@](O)(CCN(C)C)[C@H](c2cccc(C)c2)c2cc3cc(C#N)ccc3nc2OC)n1 | >10 µg/mL
O=C(CCCCCCCCc1ccccc1)c1c(O)cc(O)c([C@@H]2C[C@H](c3ccc(O)cc3)Oc3cc(O)ccc32)c1O.O=C(CCCCCCCCc1ccccc1)c1c(O)cc(O)c([C@@H]2C[C@H](c3ccc(O)cc3)Oc3cc(O)ccc32)c1O | 8.9 µg/mL
CCCCOC(=O)CSc1nnc(-c2ncc([N+](=O)[O-])n2C)s1 | >10 µg/mL
C(=C\c1ccccc1)/CCNc1ccc(N2CCSCC2)cc1 | 4 µg/mL
Nc1nc(=O)n([C@@H]2O[C@@H](CO)[C@H](O)C2(F)F)cc1Cl | >100 µM
Cn1c([N+](=O)[O-])cnc1C=NNC(=O)c1ccccc1Sc1ccccc1 | >50 µg/mL
Cn1cc(C(=O)c2ccc([N+](=O)[O-])cc2)cc1/C=C/C(=O)NO | 15 µg/mL
O=C(Nc1ccc(Cl)cc1)c1cccc2[nH]c(-c3ccncc3)nc12 | 20.45 µg/mL
c1ccc(Cn2ccc3nc(-c4ccccc4)nc-3c2)cc1 | >100 µg/mL
COc1ccc(/C=N/NC(=O)CN2c3c(-c4ccccc4)n[nH]c3-c3ccccc3S2(=O)=O)cc1 | 66 µM
O=c1[nH]c(=O)n([C@@H]2O[C@@H](CO)[C@H](O)C2(F)F)cc1I | >100 µM
O=C(Nc1cccc(Cl)c1)c1ccc([N+](=O)[O-])o1 | 6.86 µg/mL
CC(=O)c1c(C)n([O-])c2ccc(Cl)cc2[n+]1=O | 15.7 µg/mL
Cc1c(C(=O)NCc2ccccc2)[n+](=O)c2cc(F)c(F)cc2n1[O-] | >18.3 µg/mL
O=C(CSc1nnc(-c2ccc([N+](=O)[O-])o2)s1)OCc1ccccc1 | 4.7 µg/mL
COc1cccc([C@H](c2cc3cc(Br)ccc3nc2OC)[C@@](O)(CCN(C)C)c2cccc(C)n2)c1OC | >10 µg/mL
FC(F)(F)c1cc(N2CCNCC2)c2cccc(C(F)(F)F)c2n1 | 62 µM
C/C(=C\CCC1(C)C=Cc2cc(O)cc(C)c2O1)CC/C=C(\C)CC[C@@H](C)C(C)(C)O | 17 µM
c1ccc(-c2ccc(CNc3ccccc3N3CCSCC3)cc2)cc1 | 8 µg/mL
CC(=O)O[C@H]1C[C@H]2C(C)(C)CCC[C@]2(C)[C@@]23CCC(C)(C2)[C@H](OC(C)=O)C[C@H]13 | 50 µg/mL
O=C(Nc1cccnc1)c1ccc([N+](=O)[O-])o1 | 12.83 µg/mL
CCC#CCCCCCCCCN1C(=O)O[C@]2(C)[C@@H](CC)OC(=O)[C@H](C)C(=O)[C@H](C)[C@@H](O[C@@H]3O[C@H](C)C[C@H](N(C)C)[C@H]3O)[C@](C)(OC)C[C@@H](C)C(=O)[C@H](C)[C@@H]12 | 8.71 µM
CCCCCCC[C@H]1CC2CCC3C(C(=O)OCCCCCCCCCC4N=C(N)N5CCCC5=C4C(=O)OCCCCN=C(N)N)=C(C)NC(=N1)N23 | 1.8 µM
O=C(CN1c2c(-c3ccccc3)n[nH]c2-c2ccccc2S1(=O)=O)N/N=C/c1ccc(Br)cc1 | 48.5 µM
CCOC(=O)CSc1nnc(-c2ncc([N+](=O)[O-])n2C)s1 | 10 µg/mL
Cn1cc(C(=O)c2ccc(Cl)cc2)cc1/C=C/C(=O)NO | 15 µg/mL
CC1(C)CCC[C@@]2(C)[C@H]1CC[C@H]1C[C@@H](O)C3(C)CC[C@]12C3 | 32 µg/mL
c1ccc(-c2ccc(CNc3cccc(N4CCOCC4)c3)cc2)cc1 | 4 µg/mL
O=c1[nH]c(=O)n([C@H]2O[C@@H](CO)[C@H](O)C2(F)F)cc1I | >100 µM
CC(=O)c1c(C)n([O-])c2ccc(C)cc2[n+]1=O | >62.5 µg/mL
CCN(CC)c1ccc(/C=N/NC(=O)Cn2nc(-c3ccccc3)c3c2-c2ccccc2S(=O)(=O)N3C)cc1 | 23.5 µM
CC[C@H]1OC(=O)[C@H](C)C(=O)[C@H](C)[C@@H](O[C@@H]2O[C@H](C)C[C@H](N(C)C)[C@H]2O)[C@](C)(OC)C[C@@H](C)C(=O)[C@H](C)[C@H]2N(C/C=C/Cc3ccccc3)C(=O)O[C@]12C | 8.19 µM
CN1c2c(-c3ccccc3)nn(CC(=O)N/N=C/c3cccc([N+](=O)[O-])c3)c2-c2ccccc2S1(=O)=O | >100 µM
CN(C)c1cccc(-c2nc3ccn(Cc4ccc(Br)cc4)cc-3n2)c1 | >100 µg/mL
O=C(N/N=C/c1ccc(C(F)(F)F)cc1)c1ccncc1 | >63 µg/mL
Cn1cc(C(=O)c2ccc(-n3ccnc3)cc2)cc1/C=C/C(=O)O | 125 µg/mL
Nc1nc(Cl)c2ncn(/C=C3/C[C@H]3CO)c2n1 | 55 µM
c1ccc(-c2ccc(CNc3ccccc3N3CCOCC3)cc2)cc1 | 16 µg/mL
COc1cccc([C@H](c2cc3cc(C#N)ccc3nc2OC)[C@@](O)(CCN(C)C)c2ccnc(C)c2)c1F | >10 µg/mL
C(=C\c1ccccc1)/CCNc1ccccc1N1CCSCC1 | 64 µg/mL
CC[C@H]1OC(=O)[C@H](C)C(=O)[C@H](C)[C@@H](O[C@@H]2O[C@H](C)C[C@H](N(C)C)[C@H]2O)[C@](C)(OC)C[C@@H](C)C(=O)[C@H](C)[C@H]2N(NCCCc3ccnc4ccccc34)C(=O)O[C@]12C | 26.34 µM
COc1cccc([C@H](c2cc3cc(C#N)ccc3nc2OC)[C@@](O)(CCN(C)C)c2cncc(C)c2)c1OC | >10 µg/mL

The first 9 rows once more:

smiles,value
CC[C@H]1OC(=O)[C@H](C)C(=O)[C@H](C)[C@@H](O[C@@H]2O[C@H](C)C[C@H](N(C)C)[C@H]2O)[C@](C)(OC)C[C@@H](C)C(=O)[C@H](C)[C@H]2N(CC/C=C/c3ccccc3)C(=O)O[C@]12C,>104.8 µM
CC12CC[C@]3(C1)[C@H](CC2=O)[C@@H](O)C[C@H]1C(C)(C)CCC[C@@]13C,48 µg/mL
COc1cccc([C@H](c2cc3cc(C#N)ccc3nc2OC)[C@@](O)(CCN(C)C)c2cncc(C)c2)c1F,>10 µg/mL
O=c1[nH]c(=O)n([C@@H]2O[C@@H](CO)[C@H](O)C2(F)F)cc1Cl,>100 µM
Clc1ccc(-c2nc3ccn(Cc4ccc(Br)cc4)cc-3n2)cc1,>100 µg/mL
O=C(CN1c2c(-c3ccccc3)n[nH]c2-c2ccccc2S1(=O)=O)N/N=C/c1ccccc1F,15.5 µM
C[C@@H](NC(=O)c1ccc([N+](=O)[O-])o1)c1ccccc1,23.59 µg/mL
CCCCCCCCCCCC(=O)c1c(O)cc(O)c([C@@H]2C[C@@H](c3ccc(O)cc3)Oc3cc(O)ccc32)c1O,17.7 µg/mL
CC(=O)O[C@H]1C[C@H]2C(C)(C)CCC[C@]2(C)[C@@]23CCC(C)(C2)[C@@H](O)C[C@H]13,50 µg/mL